Measured values taken from US20150119245A1, “Method for Producing Shelf Stable Hypochlorous Acid Solutions” (priority 2013, published 2015).
Where no unit stands, none is given here, and values compare only within one read-out.

Experiments:
[1] = Window cleaner streak test, sprayed on glass and dried without wiping; conditions: dried without wiping, scale 1-10
[2] = Glass cleaner test with various soils on horizontal glass surface; conditions: 30 seconds, wiped, scale 1-10

[Na+].[OH-] [NaOH, sodium hydroxide]
level of streaking, Horizontal glass [1]: 10 (10=100% surface is streaked)
level of streaking, soil Butter [2]: 3
level of streaking, soil Mayonnaise [2]: 2
level of streaking, soil Milk [2]: 3
level of streaking, soil Starch [2]: 1 (1=0%—no streaks)
